Structures are written as SMILES. The entries are a selection whose mix differs from that of the whole data set. Activity calls are given as the source filed them. The call rests on the fitted dose curve; in most records, active means well fitted inhibition curve with a large enough effect; inconclusive means small, poorly fitted or top-dose-only effect; inactive means no such curve, though single readings can be large or run the other way.

This assay deals with Plasmodium falciparum AMA1 (3D7) - RON2 peptide interaction. The experiment in a line: qHTS for Inhibitors of AMA1-RON; Towards Development of Antimalarial Drug Lead: Primary Screen.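 Further: 0% = vehicle wells and -100% = peptide control; nearly all actives have a fitted effect of over 45% in size.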 The following applies: AlphaScreen AMA1-biotinylated RON2 peptide binding; at 58.2 µM (top of the series) unless noted.
Turning to `N#Cc1ccc(C(=O)NCC2(N3CCCCC3)CCCCC2)cc1`, the activity change, negative = inhibition is inactive: 3.6%. Then `CC(C)(C)OC(=O)N1CCC(N(C(=O)c2ccccc2)c2ccc(Cl)cc2)CC1`, with inactive: -9.21%; and `CCOC(=O)C(CC)C1=NC(C)(C)Cc2ccccc21.O=[N+]([O-])c1cc([N+](=O)[O-])c(O)c([N+](=O)[O-])c1` (stereo unspecified), with inactive: -6.52%. In the case of `CN(C)C1(CNC(=O)c2cccc(C#N)c2)CCCCC1` it was inactive: 27.1%.

`c1ccc(CN2CCC(Nc3ccccc3)CC2)cc1`: the activity change, negative = inhibition is inactive: -2.47%. Take `O=c1[nH]c2ccccc2n1C1CCN(C(c2ccccc2)c2nnnn2C2CCCC2)CC1` (stereo unspecified): the activity change, negative = inhibition was inactive: -9.38%. Turning to `CCCN1CCC(Nc2cc(OC)cc(OC)c2)CC1`, the activity change, negative = inhibition is inactive: -6.26%. For the compound `Cc1cc(N(CCCl)CCCl)ccc1C=O`, the activity change, negative = inhibition was inactive: 5.24%. Then `CC(C)(C)n1nnnc1C(c1cccc2ccccc12)N1CCC(n2c(=O)[nH]c3ccccc32)CC1` (stereo unspecified), with inactive: -22.5%. In the case of `CCCCn1nnnc1C(c1ccccc1)N1CCC(n2c(=O)[nH]c3ccccc32)CC1` (stereo unspecified) it was inactive: 0.387%.

As for `COc1cc(C(=O)NCC2(N3CCOCC3)CCCCC2)cc(OC)c1C`, the activity change, negative = inhibition was inactive: -8.51%. With `O=C(NCC1(N2CCOCC2)CCCCC1)c1cc(Br)ccc1Cl`, the activity change, negative = inhibition is inactive: 4.04%. For `O=c1[nH]c2ccccc2n1C1CCN(C(c2cccs2)c2nnnn2C2CCCCC2)CC1` (stereo unspecified), the activity change, negative = inhibition is inactive: -23.7%. Take `COc1ccc(C(=O)NCC2(N3CCOCC3)CCCCC2)cc1OC`: the activity change, negative = inhibition was inactive: 12.8%. Then `O=c1[nH]c2ccccc2n1C1CCN(C(c2ccnc3ccccc23)c2nnnn2C2CCCC2)CC1` (stereo unspecified), with inactive: -6.74%. As for `COc1cccc(C(c2nnnn2C(C)(C)C)N2CCC(n3c(=O)[nH]c4ccccc43)CC2)c1OC` (stereo unspecified), the activity change, negative = inhibition was inactive: -1.66%. In the case of `CCOC(=O)N1CCC(Nc2ccc(C)cc2)CC1` it was inactive: -17.5%; in that of `N/C(=N\O)c1c(N)no[n+]1[O-]`, inactive: 2.87%.

In the case of `O=C(OC1CN2CCC1CC2)C1c2ccccc2C=Cc2ccccc21` (stereo unspecified), the activity change, negative = inhibition was inactive: 4.33%. Consider `CCc1cc(C(=O)NCC2(N3CCCCC3)CCCCC2)sc1C`, for which the activity change, negative = inhibition was inactive: 13.6%. In the case of `O=c1[nH]c2ccccc2n1C1CCN(C(c2cccs2)c2nnnn2C2CCCC2)CC1` (stereo unspecified) it was inactive: -17.1%; in that of `O=C(O)c1cccc(Nc2c([N+](=O)[O-])cc([N+](=O)[O-])cc2[N+](=O)[O-])c1`, inactive: -2.59%; in that of `CCCCn1nnnc1C(c1cccc(OC)c1OC)N1CCC(n2c(=O)[nH]c3ccccc32)CC1` (stereo unspecified), inactive: -12.4%.

For the compound `CCOc1ncccc1C(=O)NCC1(N2CCOCC2)CCCCC1`, the activity change, negative = inhibition was inactive: -18.1%. Then `CN1CCC(Nc2ccc(F)c(Cl)c2)CC1`, with inactive: 6.21%; and `CC(C)(C)OC(=O)N1CCC(Nc2ccccc2)CC1`, with inactive: 7.02%; and `O=C(O)C1(Nc2ccccc2)CCN(Cc2ccccc2)CC1`, with inactive: -1.54%. `CCCOc1ccc(C(=O)NCC2(N(C)C)CCCCC2)cc1`: the activity change, negative = inhibition was inactive: -0.172%. With `O=c1[nH]c2ccccc2n1C1CCN(C(c2cc3ccccc3o2)c2nnnn2C2CCCC2)CC1` (stereo unspecified), the activity change, negative = inhibition was inactive: -28.2%.

Regarding `COc1cc(OC)cc(C(=O)NCC2(N3CCOCC3)CCCCC2)c1`, the activity change, negative = inhibition is inactive: 13.8%. In the case of `COc1cccc(C(c2nnnn2C2CCCC2)N2CCC(n3c(=O)[nH]c4ccccc43)CC2)c1OC` (stereo unspecified) it was inactive: -19.7%. Then `COc1cccc(C(=O)N(c2cc(C)cc(C)c2)C2CCN(C(=O)OC(C)(C)C)CC2)c1`, with inactive: -1.87%; and `CCC(CO)(C(=O)OC1CN2CCC1CC2)c1ccccc1` (stereo unspecified), with inactive: 7.49%. Then `CN1CCC(Nc2ccc(Cl)cc2)CC1`, with inactive: -0.612%. As for `CC(=O)N(c1ccccc1)C1CCNCC1`, the activity change, negative = inhibition is inactive: 15.3%.

`COc1cccc(C(c2nnnn2C2CCCCC2)N2CCC(n3c(=O)[nH]c4ccccc43)CC2)c1OC` (stereo unspecified): the activity change, negative = inhibition is inactive: -26.3%. Consider `CCC(c1nnnn1C1CCCCC1)N1CCC(n2c(=O)[nH]c3ccccc32)CC1` (stereo unspecified), for which the activity change, negative = inhibition was inactive: -25.6%. In the case of `O=c1[nH]c2ccccc2n1C1CCN(C(c2ccnc3ccccc23)c2nnnn2C2CCCCC2)CC1` (stereo unspecified) it was inactive: -12.1%; in that of `COc1cc(OC)cc(C(=O)NCC2(N3CCCCC3)CCCCC2)c1`, inactive: -2.88%. In the case of `Cc1ccc(C(=O)NCC2(N3CCCCC3)CCCCC2)o1` it was inactive: 20.1%; in that of `Fc1ccccc1NC1CCN(Cc2ccccc2)CC1`, inactive: 2.79%. On to `Cc1ccc(NC2(C#N)CCN(Cc3ccccc3)CC2)cc1`, for which the activity change, negative = inhibition is inactive: 24.1%. In the case of `Cc1ccccc1NC1(C#N)CCN(Cc2ccccc2)CC1` it was inactive: -6.1%; in that of `CC(C)(C)n1nnnc1C(c1ccnc2ccccc12)N1CCC(n2c(=O)[nH]c3ccccc32)CC1` (stereo unspecified), inactive: -0.399%; in that of `COc1ccc(C(c2nnnn2C2CCCCC2)N2CCC(n3c(=O)[nH]c4ccccc43)CC2)cc1` (stereo unspecified), inactive: -0.314%. Take `O=C(NCC1(N2CCCCC2)CCCCC1)c1ccco1`: the activity change, negative = inhibition was inactive: 1.98%. `Cn1c(=O)[nH]cc(N(CCCl)CCCl)c1=O`: the activity change, negative = inhibition is inactive: -14.3%. Consider `CN(C)c1ccc(C(=O)NCC2(N3CCCCC3)CCCCC2)cc1`, for which the activity change, negative = inhibition is inactive: -10.7%. With `CC(C)(C)n1nnnc1C(c1ccccc1)N1CCC(n2c(=O)[nH]c3ccccc32)CC1` (stereo unspecified), the activity change, negative = inhibition was inactive: -12.7%.

`O=C1CCN(Cc2ccccc2)CC1`: the activity change, negative = inhibition was inactive: 2.94%.

Consider `CCOc1ccc(C)cc1CN(CCCl)CCCl`, for which the activity change, negative = inhibition is inactive: -6.52%.

In the case of `O=C(NCC1(N2CCCCC2)CCCCC1)c1ccc(F)cc1`, the activity change, negative = inhibition was inactive: -2.39%.

For `CCCCn1nnnc1C(c1cc2ccccc2o1)N1CCC(n2c(=O)[nH]c3ccccc32)CC1` (stereo unspecified), the activity change, negative = inhibition is inactive: -24.6%. On to `O=P1(N(CCCl)CCCl)SCCCS1`, for which the activity change, negative = inhibition is inactive: 1.6%. In the case of `CCCCOc1ccc(C(=O)NCC2(N3CCOCC3)CCCCC2)cc1` it was inactive: -3.53%; in that of `COc1ccc(NC2CCN(CCc3ccccc3)CC2)c(OC)c1`, inactive: -28.6%; in that of `CCOC(=O)N1CCC(Nc2ccc(F)cc2)CC1`, inactive: -2.63%.

As for `O=c1[nH]c2ccccc2n1C1CCN(C(c2ccccc2)c2nnnn2C2CCCCC2)CC1` (stereo unspecified), the activity change, negative = inhibition was inactive: -6.71%. Then `COc1cc(C(=O)NCC2(N(C)C)CCCCC2)ccc1OC(F)F`, with inactive: -0.408%. In the case of `CCOC(=O)N1CCC(Nc2cccc(C)c2)CC1` it was inactive: -7.53%; in that of `O=c1[nH]c2ccccc2n1C1CCN(C(c2cccc3ccccc23)c2nnnn2C2CCCC2)CC1` (stereo unspecified), inactive: -13.8%. Then `COc1ccc(C(=O)NCC2(N3CCCCC3)CCCCC2)cc1`, with inactive: 1.93%; and `CCC(c1nnnn1C1CCCC1)N1CCC(n2c(=O)[nH]c3ccccc32)CC1` (stereo unspecified), with inactive: -17.3%. On to `COc1ccc(C(=O)NCC2(N3CCCCC3)CCCCC2)c(OC)c1OC`, for which the activity change, negative = inhibition is inactive: -18.8%. In the case of `CC(C)(C)OC(=O)N1CCC(N(C(=O)c2ccccc2)c2ccc(F)cc2)CC1` it was inactive: 44.2%; in that of `O=C(NCC1(N2CCCCC2)CCCCC1)c1ccc(=O)[nH]c1`, inactive: 14.4%; in that of `CCCCn1nnnc1C(c1cccs1)N1CCC(n2c(=O)[nH]c3ccccc32)CC1` (stereo unspecified), inactive: 7.11%.

For the compound `CCCCn1nnnc1C(CC)N1CCC(n2c(=O)[nH]c3ccccc32)CC1` (stereo unspecified), the activity change, negative = inhibition is inactive: 3.47%. Then `O=C(NCC1(N2CCCCC2)CCCCC1)c1cccs1`, with inactive: 23.2%. On to `CSc1ccccc1C(=O)NCC1(N2CCCCC2)CCCCC1`, for which the activity change, negative = inhibition is inactive: -2.44%. In the case of `Cc1cccc(NC2(C#N)CCN(Cc3ccccc3)CC2)c1`, the activity change, negative = inhibition was inactive: 0.0794%. Then `O=c1[nH]c2ccccc2n1C1CCN(C(c2ccccc2OC(F)(F)F)c2nnnn2C2CCCCC2)CC1` (stereo unspecified), with inactive: -3.76%; and `O=C(NCC1(N2CCCCC2)CCCCC1)c1ccc(Cl)nc1`, with inactive: 4.89%.

Take `Cc1cc(C)cc(N(C(=O)c2ccccc2)C2CCN(C(=O)OC(C)(C)C)CC2)c1`: the activity change, negative = inhibition was inactive: -4.24%. For the compound `O=C(NCC1(N2CCOCC2)CCCCC1)c1cc2ccccc2o1`, the activity change, negative = inhibition was inactive: 5.15%.

For the compound `O=C(OC1CN2CCC1CC2)C1c2ccccc2Oc2ccccc21` (stereo unspecified), the activity change, negative = inhibition is inactive: -1%. In the case of `O=c1[nH]c2ccccc2n1C1CCN(C(c2cc3ccccc3o2)c2nnnn2C2CCCCC2)CC1` (stereo unspecified) it was inactive: -0.296%; in that of `O=C(NCC1(N2CCCCC2)CCCCC1)c1ccc(Cl)s1`, inactive: 10.6% [at 11.6 µM]. For the compound `N#CC1(Nc2ccccc2)CCN(Cc2ccccc2)CC1`, the activity change, negative = inhibition was inactive: 11.1%. For `COc1ccc(Cl)cc1C(=O)NCC1(N2CCOCC2)CCCCC1`, the activity change, negative = inhibition was inactive: -12.3%.

As for `CCOC(=O)N1CCC(Nc2ccc(OC)cc2)CC1`, the activity change, negative = inhibition is inactive: -8.87%. As for `CCCCn1nnnc1C(c1ccc(OC)cc1)N1CCC(n2c(=O)[nH]c3ccccc32)CC1` (stereo unspecified), the activity change, negative = inhibition was inactive: -9.36%. As to `CCCCn1nnnc1C(c1ccccc1OC(F)(F)F)N1CCC(n2c(=O)[nH]c3ccccc32)CC1` (stereo unspecified), the activity change, negative = inhibition was inactive: -4.61%. In the case of `COc1ccc(CN(CCCl)CCCl)cc1Cl` it was inactive: -23.5%. Regarding `O=[N+]([O-])c1cc([N+](=O)[O-])c(OC2CCCCC2O)c([N+](=O)[O-])c1` (stereo unspecified), the activity change, negative = inhibition is inactive: 0%. As to `CN(C)c1cccc(C(=O)NCC2(N3CCCCC3)CCCCC2)c1`, the activity change, negative = inhibition is inactive: 7.64%. Take `COc1cc(OC)c(C(=O)NCC2(N(C)C)CCCCC2)cc1OC`: the activity change, negative = inhibition was inactive: -3.45%.

Turning to `CCC(c1nnnn1C(C)(C)C)N1CCC(n2c(=O)[nH]c3ccccc32)CC1` (stereo unspecified), the activity change, negative = inhibition was inactive: -5.75%. `O=C(NCC1(N2CCOCC2)CCCCC1)c1cc(F)c(F)cc1Cl`: the activity change, negative = inhibition was inactive: -4.79%. As to `CCN(CC)CCCNc1ccccc1[N+](=O)[O-].O=[N+]([O-])c1cc([N+](=O)[O-])c(O)c([N+](=O)[O-])c1`, the activity change, negative = inhibition is inactive: -9.62%. Take `CCCCn1nnnc1C(c1ccnc2ccccc12)N1CCC(n2c(=O)[nH]c3ccccc32)CC1` (stereo unspecified): the activity change, negative = inhibition is inactive: -6.72%.
